Data reported in PubChem BioAssay AID1899 (The Scripps Research Institute Molecular Screening Center, 2009).
The entries are a selection whose mix differs from that of the whole data set. The source made the active and inactive calls.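 Rule for the calls: active = inhibition above the mean of all tested compounds plus 3 SD, set per screening campaign (cut at about 45% in these data); inactive = the rest.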

tested on: HCV core protein (residues 1-106) dimerization; assay: blockers of core106 self-association – biochemical, TR-FRET, high-throughput, primary screen (AID 1899); details: TR-FRET GST/Flag-core106 dimerization, 1536-well; at 5 µM; active compounds read high
Procedure, shortened: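 System: GST/Flag-tagged HCV core106 proteins. Incubation: compound-protein-antibody incubation 4 h at 22.5 °C. Technique: HTRF with 340 nm excitation, 617/671 nm emission. Medium: KF-containing HEPES buffer, pH 7.45, DTT, CHAPS, BSA. Read-out: inhibition (%) from 671 over 617 nm ratio. Also added: Eu(K)-anti-GST 90 ng/mL plus XL665-anti-Flag 1 µg/mL.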

| SMILES | inhibition |
| --- | --- |
| CN(C)C(=O)c1cc([N+](=O)[O-])cc2c1-c1c(cc([N+](=O)[O-])cc1[N+](=O)[O-])C2=O | inactive: -26.9% |
| CN(C(=O)Cc1ccccc1)[C@@H]1CC[C@]2(CCCO2)C[C@H]1N1CCCC1 | inactive: -6.76% |
| CCOP1(=S)c2c(C)nn(CCC#N)c2N=C(c2ccc(F)cc2)N1C (configuration not stated) | inactive: -2.12% |
| N#CCCN(C(=O)COC(=O)C(O)(c1ccccc1)c1ccccc1)c1ccc(F)cc1 | inactive: 1.53% |
| NC(=O)Nc1ccc([As](=O)(O)O)cc1 | inactive: -11.6% |
| O=C(O)COc1ccc([As](=O)(O)O)cc1[N+](=O)[O-] | inactive: -16.9% |
| Nc1ccccc1[As](=O)(O)c1ccccc1 | inactive: -0.48% |
| CS(=O)(=O)c1cc([N+](=O)[O-])c2no[n+]([O-])c2c1 | inactive: -7.41% |
| O=P(Nc1nccs1)(Oc1ccccc1)Oc1ccccc1 | inactive: -10.1% |
| O=P(Nc1nccs1)(c1ccccc1)c1nc2ccccc2s1 (configuration not stated) | inactive: 0.37% |
| CCOP1(=S)c2c(C)nn(CCC#N)c2N=C(c2ccccc2F)N1C (configuration not stated) | inactive: -6.96% |
| CCOP(=O)(Nc1cccc2ccccc12)OCC | inactive: -1.07% |
| COc1cc(C2NCCC3(OCCO3)C2(C)C)cc(OC)c1OC (configuration not stated) | inactive: -0.64% |
| CCCOP(=S)(Nc1nc(N)cc(=O)[nH]1)OCCC | inactive: 8.87% |
| Cc1ccc(NCCc2c([N+](=O)[O-])cc([N+](=O)[O-])cc2[N+](=O)[O-])cc1 | inactive: 4.12% |
| Nc1cccc2c([As](=O)(O)O)cccc12 | inactive: 0.18% |
| Cc1cccc(OCC(=O)OC2CN3CCC2CC3)c1 (configuration not stated) | inactive: -3.54% |
| O=[As](O)(c1cccc(O)c1)c1cccc(O)c1 | inactive: 0.04% |
| CS(=O)(=O)c1ccc(Cl)c(NC(=O)COC(=O)C(O)(c2ccccc2)c2ccccc2)c1 | inactive: 5.15% |
| O=[As](O)(O)c1cccnc1 | inactive: -2.46% |
| COc1cc(C(=O)NCC2(N3CCOCC3)CCCCC2)cc(Cl)c1OC(C)C | inactive: 2.55% |
| O=C(OC1CN2CCC1CC2)c1ccc(Cl)cc1 (configuration not stated) | inactive: 0.81% |
| CC1(CBr)Cn2c(nc3ccccc3c2=O)S1 (configuration not stated) | inactive: -4.52% |
| O=[As](O)(c1ccccc1Br)c1ccccc1Br | inactive: -1.49% |
| CN(C(=O)Cc1ccc(Cl)c(Cl)c1)[C@@H]1CCCC[C@H]1N1CCCC1 | inactive: -2.63% |
| CC(C)/C=N\N=C(\N)N[N+](=O)[O-] | inactive: -1.51% |
| COc1ccccc1CNC(=O)COC(=O)C(O)(c1ccccc1)c1ccccc1 | inactive: 1.16% |
